From paper PMC11121837, “Impact of Nitric Oxide-Release Kinetics on Antifungal Activity” (Journal of Fungi, 2024)

Test system: C. albicans (MYA-2876)
Type: cell-based, Candida albicans

Compound: Nc1nc(=O)[nH]cc1F [5-fluorocytosine, reference compound]
- increase of MIC and MFC values after serial passaging (C. albicans, daily exposure to 1/10th of MIC, by passage 21): 32 fold

Compound: NCCN(CCN)/[N+]([O-])=N/O [DETA/NO, diethylenetriamine/NO]
- change in MIC or MFCs after serial passaging: no change

Compound: NCCCN(CCCN)/[N+]([O-])=N/O [DPTA/NO, bis(3-aminopropyl) amine/NO]
- change in MIC or MFCs after serial passaging: no changes

Compound: NCCCNCCCCN(CCCN)/[N+]([O-])=N/O [SPER/NO, spermine/NO]
- change in MIC or MFCs after serial passaging: no changes

Compound: Clc1ccc(COC(Cn2ccnc2)c2ccc(Cl)cc2Cl)c(Cl)c1 (centres unmarked) [miconazole, reference compound]
- outcome of passaging at sub-MIC dose: death of C. albicans after the second passage
